The data set concerns KPAF4-WT (Trypanosoma brucei (procyclic 29-13)). Put plainly: EMSA. Particulars: EMSA on 3-12% native PAGE, 5' radiolabeled RNA, increasing KPAF4; native protein; protein details: C-terminal TAP; label: 5' 32P. In general terms: Mobility shift assays separate free from complexed probe on a gel.

Construct, isoform or probe ends are uncertain for at least one entry. No signal at the amounts used counts as a negative.

Turning to “GGGUGGUGGUUUUGUUGAUUUACCCGGUGUAAAGUAUUAUACACGUAUUGUAAGUUAGAUUUAGAUAUAAGAUAUGUUUUU [RPS12 No-tail RNA]”, the binding result is listed as “no binding”.
As for “GGGUGGUGGUUUUGUUGAUUUACCCGGUGUAAAGUAUUAUACACGUAUUGUAAGUUAGAUUUAGAUAUAAGAUAUGUUUUUAAAAAAAAAAAAAAAAAAAA [RPS12 A-tail RNA]”, the entry is “binds”; as for “GGGUGGUGGUUUUGUUGAUUUACCCGGUGUAAAGUAUUAUACACGUAUUGUAAGUUAGAUUUAGAUAUAAGAUAUGUUUUUUUUUUUUUUUUUUUUUUUUU [RPS12 U-tail RNA]”, “no binding”.

The values are drawn from publication PMC6329795.
